# Literature values, collected in US20070218486A1, “Immunoassays, Haptens, Immunogens and Antibodies for Anti-HIV Therapeutics” (Ark Diagnostics, Inc., priority 2006, published 2007).
# Key:
# [1] = rat; cited from earlier work
# [2] = cited from earlier work
# [3] = 2 to 4 hours after the dose, cited from earlier work
Substance,secretion of parent compound [1],major component present in the systemic circulation and excreta ([2]; animal species and humans),elimination of radioactive dose ([2]; in vivo),"concentration in cerebrospinal fluid (CSF), % of serum concentrations ([3]; adults) [%]","concentration in cerebrospinal fluid (CSF), % of serum concentrations ([3]; children) [%]"
Maraviroc,secreted via bile and directly into the gastrointestinal tract,parent compound being the major component,primarily via the feces,,
2′-deoxy-3′-thiacytidine [Lamivudine],,,,4 to 8,9 to 17

# Read-outs that look alike come from different tables or passages of the source.
